Data source: PubChem BioAssay AID624099 (ICCB-Longwood, 2012)

Screen: 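Host factors E2 relies on to silence an HPV18 LCR reporter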 (primary screen)
Cell system: human C33A cervical carcinoma cells (HPV-negative) stably expressing BPV1 E2 and an HPV18 LCR luciferase reporter
Knock-down reagent: siRNA pool against human genes, 40 nM
Timing: 72 h
Measurement: 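HPV18 LCR reporter light per well, converted to plate-wise z-scores that exclude control wells, and averaged over triplicate plates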
Scale: mean z-score and z-score: higher = stronger reporter signal, weaker E2 silencing
Active means: 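Hit if mean z-score reaches 2 and two or more of three replicate z-scores also reach 2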
Here is one part, drawn at random, of about 21,000 deposited reagents. Over the whole deposit, 497 (2.4%) were called active. 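Higher z means weaker E2 silencing; only reporter increases were scored, and knock-downs that hurt cell survival may mask genuine repressor factors.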 No sequences are given here.

no.	Target gene	PubChem SID	mean z-score	z-score, replicate A	z-score, replicate B	z-score, replicate C	outcome
1	CWC25	SID134320107	0.56	0.41	0.71	0.55	inactive
2	LOC402094 (retired record)	SID134327145	0.41	0.31	0.22	0.7	inactive
3	SLC68A1	SID134326499	-1.14	-0.82	-0.99	-1.62	inactive
4	IPO8	SID134316539	0.52	0.51	0.46	0.58	inactive
5	RAB40B	SID134313230	-0.29	-0.2	0.03	-0.69	inactive
6	DACT1	SID134320430	-0.1	0.05	-0.21	-0.14	inactive
7	RARRES2	SID134315717	0.17	0.16	0.28	0.08	inactive
8	LYNX1	SID134317136	0.68	0.67	0.66	0.73	inactive
9	DST	SID134315923	0.43	0.3	0.56	0.43	inactive
10	SEC24C	SID134313339	-0.5	-0.47	-0.63	-0.41	inactive
11	RPL7L1	SID134326828	0.45	0.1	1.29	-0.04	inactive
12	RHOC	SID134313422	-0.41	-0.37	-0.58	-0.29	inactive
13	OAZ1	SID134323021	0.04	-0.03	-0.04	0.19	inactive
14	H1-8	SID134321434	-0.28	-0.31	-0.34	-0.19	inactive
15	LOC390865 (retired record)	SID134328870	0.13	0.35	0.16	-0.12	inactive
16	TRAPPC6A	SID134318474	-0.6	-0.33	-0.81	-0.67	inactive
17	POLR3A	SID134323509	0.4	0.34	0.33	0.55	inactive
18	MGAT5	SID134315680	0.08	0.09	0	0.15	inactive
19	FOXP3	SID134314067	-0.26	-0.13	-0.38	-0.28	inactive
20	GLRA3	SID134311601	0.13	0.29	0.24	-0.13	inactive
21	FBXO28	SID134318262	0.21	0.04	1.08	-0.5	inactive
22	CYP20A1	SID134314621	1.3	1.15	1.5	1.25	inactive
23	OR4N4	SID134329755	-1.6	-1.8	-1.49	-1.52	inactive
24	HR	SID134316187	0.9	1.21	0.67	0.83	inactive
25	ADAM28	SID134311187	-1.09	-0.6	-1.49	-1.18	inactive
26	GALNT11	SID134312165	0.43	0.51	0.42	0.37	inactive
27	POMGNT1	SID134324697	-0.16	-0.01	-0.27	-0.21	inactive
28	PLSCR4	SID134324777	1.23	0.98	1.29	1.41	inactive
29	LINGO2	SID134319942	1.17	1.7	0.41	1.41	inactive
30	PIP5K1C	SID134310630	0.11	-0.43	0.51	0.23	inactive
31	STARD8	SID134314835	0.25	0.36	0.06	0.32	inactive
32	USP46	SID134311512	-0.46	-0.3	-0.51	-0.57	inactive
33	LINC02139	SID134328701	0.08	0.04	0.2	-0.01	inactive
34	VWCE	SID134319627	0.23	0.11	0.23	0.36	inactive
35	KIF1B	SID134314076	-0.81	-0.64	-1.18	-0.62	inactive
36	SUPT20HL2	SID134326217	-0.85	-1.04	-0.99	-0.52	inactive
37	SUPT20HL2	SID134326218	-0.97	-1.1	-0.9	-0.9	inactive

Entries above whose gene name starts with H or h:
Target gene	PubChem SID	mean z-score	z-score, replicate A	z-score, replicate B	z-score, replicate C	outcome
H1-8	SID134321434	-0.28	-0.31	-0.34	-0.19	inactive
HR	SID134316187	0.9	1.21	0.67	0.83	inactive

Continued:
no.	Target gene	PubChem SID	mean z-score	z-score, replicate A	z-score, replicate B	z-score, replicate C	outcome
38	DYNLT4	SID134325184	1.04	1.29	1.04	0.79	inactive
39	LOC388573 (retired record)	SID134327089	-0.17	-0.11	-0.15	-0.24	inactive
40	LOC400733 (retired record)	SID134326933	-1.31	-1.1	-1.13	-1.69	inactive
41	TRPC6	SID134310305	-0.85	-0.94	-0.7	-0.9	inactive
42	KRT86	SID134315664	0.5	0.28	0.53	0.68	inactive
43	VEGFA	SID134309951	1.01	1	1.15	0.87	inactive
44	GPR132	SID134310950	-0.71	-0.59	-0.78	-0.75	inactive
45	KIAA1614	SID134325201	1.99	1.38	2.32	2.27	inactive
46	SF3B3	SID134323824	-2.71	-2.66	-2.73	-2.74	inactive
47	ZNF847P	SID134327049	0.51	0.78	0.49	0.26	inactive
48	SEPSECS-DT	SID134327476	0.65	0.67	0.76	0.52	inactive
49	TRIM60	SID134312274	-0.42	-0.89	-0.03	-0.33	inactive
50	ZZZ3	SID134318134	0.36	0.41	0.37	0.28	inactive
51	SCN2A	SID134311716	-1.31	-1.43	-1.37	-1.12	inactive
52	FABP5P10	SID134325621	-1.04	-0.86	-1.19	-1.07	inactive
53	OR1A1	SID134313753	1.65	1.62	2.06	1.28	inactive
54	PEX11A	SID134316884	-0.1	-0.47	0.16	0.01	inactive
55	TET1	SID134318748	-0.41	0.05	-0.71	-0.57	inactive
56	NPVF	SID134321884	0.1	0.08	-0.06	0.3	inactive
57	ASB5	SID134321393	0.93	0.96	0.83	0.99	inactive
